Results of unrelated studies side by side (data: NIAID ChemDB).

Shared fields: toxicity to cultured cells; cells: HEP-2; endpoint: CC50

CCn is the concentration with n% toxicity to the cells.

| SMILES | read by | value |
|---|---|---|
| CC(=O)c1cc(NC(=O)c2ccccc2)c(=O)n2c1[nH]c1ccccc12 | - | 40 µg/mL |
| CSc1noc(-c2ccc(OCCOc3ccc(C)cc3)cc2)c1C#N | - | >25 µM |
| CSc1nsc(-c2cccnc2)c1C#N | - | 20 µM |
| Nc1ncnc2c1ncn2[C@H]1[C@H](O)[C@H](F)[C@@H](CO)[C@@H]1O | - | >320 µM |
| O=C(/C=C/c1ccc(O)c(O)c1)O[C@@H]1CC(O)(C(=O)O)C[C@@H](OC(=O)/C=C/c2ccc(O)c(O)c2)C1O | - | >400 µg/mL |
| CSc1nsc(-c2ccc(O)cc2)c1C#N | - | 2 µM |
| N#Cc1cc(CC(=O)c2ccccc2)c(=O)n2c1sc1ccccc12 | - | 200 µg/mL |
| CC(C)CCCCC(O)C12C[C@@H]3[C@H](C)CC[C@H]3C3(C=O)CC1C=C(C(C)C)[C@@]23C(=O)O | - | 2.5 µg/mL |
| Cc1cc(=O)c2c(O)c(C)c(O[C@H]3O[C@H](CO)[C@@H](O)[C@H](O)[C@H]3O)c(C)c2o1 | - | 83.5 µg/mL |
| CCCCOc1ccc(-c2snc(SC)c2C#N)cc1 | - | >50 µM |
| CCCCCCC(O)C12C[C@@H]3[C@H](C)CC[C@H]3C3(C=O)CC1C=C(C(C)C)[C@@]23C(=O)O | - | 1.5 µg/mL |
| O=C(NNCc1cccc(O)c1O)c1ccccc1O | ATP | 570 µM |
| CSc1nsc(-c2ccc(O)cc2)c1C#N | - | 2 µM |
| CC(=O)c1cc(CC(=O)c2ccccc2)c(=O)n2c1sc1ccccc12 | - | 40 µg/mL |
| NC(=O)CCN(CCC(N)=O)S(=O)(=O)c1cccc(Nc2nc(Nc3cccc(S(=O)(=O)N(CCC(N)=O)CCC(N)=O)c3)nc(Nc3ccc(-c4ccc(Nc5nc(Nc6cccc(S(=O)(=O)N(CCC(N)=O)CCC(N)=O)c6)nc(Nc6cccc(S(=O)(=O)N(CCC(N)=O)CCC(N)=O)c6)n5)cc4S(=O)(=O)O)c(S(=O)(=O)O)c3)n2)c1 | - | 375 µg/mL |
| CSc1nsc(-c2ccc(OS(=O)(=O)c3ccc(C)cc3)cc2)c1C#N | - | 25 µM |
| CSc1noc(-c2ccc(OCCc3ccccc3)cc2)c1C#N | - | >20 µM |
| CSc1nsc(-c2ccc(OS(=O)(=O)c3ccc(C)cc3)cc2)c1C#N | - | >25 µM |
| Nc1nccc2c1ncn2[C@@H]1C=C(CO)[C@@H](O)[C@H]1O | - | 0.1 µg/mL |
| S=c1cc(-c2ccccc2)s[nH]1 | - | 90 µM |
| O=C(/C=C/c1ccc(O)c(O)c1)O[C@@H]1CC(O)(C(=O)O)C[C@@H](OC(=O)/C=C/c2ccc(O)c(O)c2)C1O | - | >100 µg/mL |
| N#Cc1cc(CC(=O)c2ccccc2)c(=O)n2c1oc1ccccc12 | - | 40 µg/mL |
| CC(C)C1=CC2CC3(C=O)[C@@H]4CC[C@@H](C)[C@H]4CC2(C(O)CC2CCCCC2)[C@]13C(=O)O | - | 1.8 µg/mL |
| N#Cc1c(-c2ccccc2)nsc1Cl | - | 20 µM |
| Nc1ccn([C@H]2CC[C@@H](CO)O2)c(=O)n1 | - | 381.9 µg/mL |

For reference, 4 entries again:

| SMILES | read by | value |
|---|---|---|
| CC(C)CCCCC(O)C12C[C@@H]3[C@H](C)CC[C@H]3C3(C=O)CC1C=C(C(C)C)[C@@]23C(=O)O | - | 2.5 µg/mL |
| CSc1noc(-c2ccc(OCCOc3ccc(C)cc3)cc2)c1C#N | - | >25 µM |
| O=C(NNCc1cccc(O)c1O)c1ccccc1O | ATP | 570 µM |
| CCCCOc1ccc(-c2snc(SC)c2C#N)cc1 | - | >50 µM |

Rows are shuffled and stem from different studies. Blank or dashed fields: not listed here.